Source: US20100292135A1 (priority 2005, published 2010)

Sequences of proteins named here, by UniProt entry; tags and fusion partners are left off. A change or cut given only in a name is not applied to a line headed by its entry.
UniProt P0A7G6: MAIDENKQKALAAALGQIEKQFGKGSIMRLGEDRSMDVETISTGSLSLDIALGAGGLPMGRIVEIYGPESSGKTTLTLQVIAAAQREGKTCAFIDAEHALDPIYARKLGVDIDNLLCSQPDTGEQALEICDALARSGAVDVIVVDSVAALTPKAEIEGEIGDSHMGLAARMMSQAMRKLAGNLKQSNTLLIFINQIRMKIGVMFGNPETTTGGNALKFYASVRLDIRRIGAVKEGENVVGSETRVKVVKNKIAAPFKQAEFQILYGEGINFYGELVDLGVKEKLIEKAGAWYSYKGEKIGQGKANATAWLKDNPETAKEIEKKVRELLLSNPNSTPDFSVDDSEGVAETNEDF

What was measured:
RecA protein [1] = target: T1, RecA protein (Escherichia coli, UniProt P0A7G6); assay: Precipitation/aggregation of RecA in vitro (turbidity, visual inspection)
RecA protein [2] = target: T1, RecA protein; assay: ssDNA-dependent RecA-catalyzed ATP hydrolysis (ATPase) assay; format: biochemical, E. coli; conditions: components of the Zn complex tested separately

Substance	precipitation/aggregation of RecA in vitro (RecA protein [1])	concentration causing turbidity in the solution (RecA protein [1]; visual inspection)	inhibition of RecA ATPase activity (in words) (RecA protein [2])
Bi(NO3)3	precipitates RecA in vitro	–	–
ZnCl2	inactivate the RecA protein in vitro by initiating protein aggregation	200 µM	a degree of inhibition similar to the complex
